Pooled drug test results. Numbers come from NIAID ChemDB, via PubChem.

Common to all: tests in culture; species: Candida albicans; measure: MIC90

An empty or dashed field is not shown.

structure	setting	strain or isolate	read by	value
CC(C)C(N)CCC(C)C1CC[C@@]2(C)C3=C(CCC12C)C1(C)CC[C@H](O)C(C)(C)C1CC3	-	B02630	-	100 µg/mL
C[C@H]1[C@H](O)[C@@H](C)/C=C/C=C/C=C/C=C/C=C/C=C/C=C/[C@H](O[C@@H]2O[C@H](C)[C@@H](O)[C@H](N)[C@@H]2O)C[C@@H]2O[C@](O)(C[C@@H](O)C[C@@H](O)CC[C@H](O)[C@@H](O)C[C@@H](O)CC(=O)O[C@H]1C)C[C@H](O)[C@H]2C(=O)O	-	ATCC 10261	broth dilution / turbidity	0.5 µg/mL
CCC(C)CC(C)CCCCCCCCC(=O)N[C@H]1C[C@@H](O)[C@H](NCCN)NC(=O)[C@@H]2[C@@H](O)CCN2C(=O)[C@H]([C@H](O)CCN)NC(=O)[C@H]([C@H](O)[C@@H](O)c2ccc(O)cc2)NC(=O)[C@@H]2C[C@@H](O)CN2C(=O)[C@H]([C@@H](C)O)NC1=O	-	10 isolates azole-resistant	-	0.4 µg/mL
Nc1ncccc1-c1cc(Cc2ccc(COc3ccccn3)cc2)no1	-	-	broth dilution	<0.03 µg/mL
CCC(C)n1ncn(-c2ccc(N3CCN(c4ccc(OC[C@H]5CO[C@](Cn6cncn6)(c6ccc(Cl)cc6Cl)O5)cc4)CC3)cc2)c1=O	-	-	broth dilution	0.016 µg/mL
O=C(c1ccccc1)C(c1ccccc1)n1ccnc1	-	-	agar	>256 µg/mL
C/C(C=O)=C\c1ccccc1	-	ATCC 44829	agar diffusion	250 µM
Nc1ncccc1-c1cc(Cc2ccc(COc3ccccn3)cc2)no1	-	-	broth dilution	0.06 µg/mL
CCOC(=O)c1ccccc1S(=O)(=O)NC(=O)Nc1nc(Br)cc(OC)n1	-	-	broth dilution	6.25 µM
Clc1ccc(COc2ccc(C(c3ccc4ccccc4c3)n3ccnc3)cc2)c(Cl)c1	-	17 strains	-	≥256 µg/mL
CCCCCOc1ccc(-c2cc(-c3ccc(C(=O)N[C@H]4C[C@@H](O)[C@@H](O)NC(=O)[C@@H]5[C@@H](O)[C@@H](C)CN5C(=O)[C@H]([C@H](O)CC(N)=O)NC(=O)[C@H]([C@H](O)[C@@H](O)c5ccc(O)c(OS(=O)(=O)O)c5)NC(=O)[C@@H]5C[C@@H](O)CN5C(=O)[C@H]([C@@H](C)O)NC4=O)cc3)no2)cc1	-	-	broth dilution	0.016 µg/mL
C[C@@H](c1ncncc1F)[C@](O)(Cn1cncn1)c1ccc(F)cc1F	48 h	Isolate HR-Micro	-	0.39 µg/mL
O=c1cc(-c2ccccc2)c2ccc(Cl)cc2o1	-	ATCC 90028	broth dilution / absorbance	>100 µg/mL
c1ccc(C(c2ccccc2)n2ccnc2)cc1	-	-	agar	1 µg/mL
CCOC(=O)c1c(-c2ccccc2)c2cc(Cl)ccc2oc1=O	-	ATCC 90028	broth dilution / absorbance	>100 µg/mL
C=CCSS(=O)CC=C	-	Clinical Isolate 3055	broth dilution	3.13 µg/mL
Fc1ccc(COc2ccc(C(c3cccc4ccccc34)n3ccnc3)cc2)cc1.O=[N+]([O-])O	-	17 strains	-	≥256 µg/mL
Clc1ccc(C(c2ccccc2)n2cncn2)cc1	-	-	agar	32 µg/mL
Clc1cccc(Cl)c1COc1ccc(C(c2ccc(-c3ccccc3)cc2)n2ccnc2)cc1.O=[N+]([O-])O	-	17 strains	-	≥256 µg/mL
Clc1ccc(C(Cn2ccnc2)OCc2csc3c(Cl)cccc23)c(Cl)c1	48 h	63 isolates	visual reading	4 µg/mL
CCNC(CCC(C)C1CC[C@@]2(C)C3=C(CCC12C)C1(C)CC[C@H](OC(C)=O)C(C)(C)C1CC3)C(C)C	-	A.10231	-	100 µg/mL
C=CCc1ccc(OC)c(OC)c1	-	ATCC 90028	turbidity	340 µg/mL
CC(C)C(CCC(C)C1CCC2C3CC=C4C[C@@H](O)CCC4(C)C3CCC12C)NS(=O)(=O)O	-	A13803	-	3.13 µg/mL
c1ccc(C(c2ccccc2)n2cnc3ccccc32)cc1	-	-	agar	>256 µg/mL
Clc1ccc(COc2ccc(C(c3ccc(-c4ccccc4)cc3)n3ccnc3)cc2)cc1.O=[N+]([O-])O	-	17 strains	-	≥256 µg/mL
CC(C)C(N)CCC(C)C1CCC2C3CC=C4C[C@@H](O)CCC4(C)C3CCC12C	-	IFO. 1385	-	0.39 µg/mL
CC[C@@H]([C@H](C)O)n1ncn(-c2ccc(N3CCN(c4ccc(OC[C@@H]5CO[C@@](Cn6cncn6)(c6ccc(F)cc6F)C5)cc4)CC3)cc2)c1=O	-	-	broth dilution	0.5 µg/mL
Clc1ccccc1COc1ccc(C(c2ccc(-c3ccccc3)cc2)n2ccnc2)cc1.O=[N+]([O-])O	-	17 strains	-	≥256 µg/mL
CN[C@H]1CC[C@@H](c2ccc(Cl)c(Cl)c2)c2ccccc21	-	SC5314	broth dilution	32 µg/mL
CNC(CCC(C)C1CC[C@@]2(C)C3=C(CCC12C)C1(C)CC[C@H](OC(C)=O)C(C)(C)C1CC3)C(C)C	-	A.10231	-	100 µg/mL
Clc1ccc(COc2ccc(C(c3nccc4ccccc34)n3ccnc3)cc2)cc1.O=[N+]([O-])O	-	17 strains	-	≥256 µg/mL
CC(=O)N1CCN(c2ccc(OC[C@H]3CO[C@](Cn4ccnc4)(c4ccc(Cl)cc4Cl)O3)cc2)CC1	-	10 isolates azole-resistant	-	0.04 µg/mL
C=CCSS(=O)CC=C	-	ATCC 10231	broth dilution	1000 µg/mL

A second listing of 4 rows from above:

structure | setting | strain or isolate | read by | value
Clc1ccc(COc2ccc(C(c3nccc4ccccc34)n3ccnc3)cc2)cc1.O=[N+]([O-])O | - | 17 strains | - | ≥256 µg/mL
c1ccc(C(c2ccccc2)n2cnc3ccccc32)cc1 | - | - | agar | >256 µg/mL
CC(C)C(N)CCC(C)C1CC[C@@]2(C)C3=C(CCC12C)C1(C)CC[C@H](O)C(C)(C)C1CC3 | - | B02630 | - | 100 µg/mL
CCC(C)n1ncn(-c2ccc(N3CCN(c4ccc(OC[C@H]5CO[C@](Cn6cncn6)(c6ccc(Cl)cc6Cl)O5)cc4)CC3)cc2)c1=O | - | - | broth dilution | 0.016 µg/mL

MIC50, MIC90 and the like: level of inhibition, or share of isolates inhibited. Conditions beyond the fields shown may differ between rows.